# For some of these results: No signal at the amounts used counts as a negative. At least one verdict rests on a figure or table, not on a statement of the authors. For some of these results: Tags and fusion partners may be left off the protein sequences shown. The exact form of at least one protein or probe is not confirmed. For some of these results: Results from cells or extracts need not show a direct contact.
# Assays:
# [1] = target: T1, ComL (Neisseria meningitidis MC58) (UniProt Q9K0B1); experiment: EMSA; conditions: EMSA: 4.5 fmol DNA in 10 µl, 10% glycerol, 5 mM MgCl2, 0.02 mg/ml BSA, 1 mM DTT, with half volume of protein in 50 mM NaH2PO4, 300 mM NaCl, pH 8.0, recombinant protein, protein details: C-terminal 6xHis, label: 5'-32P
# T1 sequence (looked up, limits assumed): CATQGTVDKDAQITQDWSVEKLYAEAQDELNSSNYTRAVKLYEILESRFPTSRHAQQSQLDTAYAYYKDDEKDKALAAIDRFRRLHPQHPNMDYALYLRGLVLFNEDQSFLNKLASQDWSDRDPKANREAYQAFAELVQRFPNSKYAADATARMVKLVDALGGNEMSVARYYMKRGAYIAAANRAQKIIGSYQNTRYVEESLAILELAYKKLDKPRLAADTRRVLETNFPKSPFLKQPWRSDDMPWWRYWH
# [2] = target: T2, ComL (native) (Neisseria meningitidis H44/76) (UniProt Q9K0B1); experiment: solid-phase overlay (Southwestern); conditions: protein in an extract, label: 5'-32P
# T2 sequence (looked up, limits assumed): T1 sequence (looked up, limits assumed)
# [3] = target: T3, SSB (native) (Neisseria meningitidis H44/76, MC58, Z2491) (UniProt P66849); experiment: solid-phase overlay (Southwestern); conditions: protein in an extract, label: 5'-32P
# T3 sequence (looked up, limits assumed): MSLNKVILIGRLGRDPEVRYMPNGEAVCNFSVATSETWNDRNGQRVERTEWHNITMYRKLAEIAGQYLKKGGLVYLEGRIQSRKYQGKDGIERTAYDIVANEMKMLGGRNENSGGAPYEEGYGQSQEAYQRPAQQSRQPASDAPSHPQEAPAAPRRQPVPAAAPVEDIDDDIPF
# [4] = target: T4, NMB1796 (Neisseria meningitidis) (UniProt Q9JY11); experiment: solid-phase overlay (Southwestern); conditions: protein in an extract; label: 5'-32P; single-stranded DNA
# T4 sequence (looked up, limits assumed): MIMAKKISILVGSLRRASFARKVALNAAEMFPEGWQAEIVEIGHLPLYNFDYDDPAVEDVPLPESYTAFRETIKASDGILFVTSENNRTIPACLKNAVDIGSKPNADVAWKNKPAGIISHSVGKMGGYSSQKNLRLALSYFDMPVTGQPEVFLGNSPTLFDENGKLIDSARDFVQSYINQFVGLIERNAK
# [5] = target: T5, NMB1963 (Neisseria meningitidis) (UniProt Q9JXN1); experiment: solid-phase overlay (Southwestern); conditions: protein in an extract; label: 5'-32P; single-stranded DNA
# T5 sequence (looked up, limits assumed): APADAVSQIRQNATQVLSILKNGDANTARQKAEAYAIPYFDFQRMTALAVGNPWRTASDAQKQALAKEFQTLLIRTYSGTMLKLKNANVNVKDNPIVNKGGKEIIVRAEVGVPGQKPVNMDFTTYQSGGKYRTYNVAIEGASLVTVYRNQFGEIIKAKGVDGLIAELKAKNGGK
# [6] = target: PilG (native) (Neisseria meningitidis) (UniProt Q7DDR1); experiment: solid-phase overlay (Southwestern); conditions: protein in an extract; label: 5'-32P; single-stranded DNA
# [7] = target: T6, PilQ (native) (Neisseria meningitidis) (UniProt Q70M91); experiment: solid-phase overlay (Southwestern); conditions: possible outer membrane contamination; protein in an extract; label: 5'-32P; single-stranded DNA
# T6 sequence (looked up, limits assumed): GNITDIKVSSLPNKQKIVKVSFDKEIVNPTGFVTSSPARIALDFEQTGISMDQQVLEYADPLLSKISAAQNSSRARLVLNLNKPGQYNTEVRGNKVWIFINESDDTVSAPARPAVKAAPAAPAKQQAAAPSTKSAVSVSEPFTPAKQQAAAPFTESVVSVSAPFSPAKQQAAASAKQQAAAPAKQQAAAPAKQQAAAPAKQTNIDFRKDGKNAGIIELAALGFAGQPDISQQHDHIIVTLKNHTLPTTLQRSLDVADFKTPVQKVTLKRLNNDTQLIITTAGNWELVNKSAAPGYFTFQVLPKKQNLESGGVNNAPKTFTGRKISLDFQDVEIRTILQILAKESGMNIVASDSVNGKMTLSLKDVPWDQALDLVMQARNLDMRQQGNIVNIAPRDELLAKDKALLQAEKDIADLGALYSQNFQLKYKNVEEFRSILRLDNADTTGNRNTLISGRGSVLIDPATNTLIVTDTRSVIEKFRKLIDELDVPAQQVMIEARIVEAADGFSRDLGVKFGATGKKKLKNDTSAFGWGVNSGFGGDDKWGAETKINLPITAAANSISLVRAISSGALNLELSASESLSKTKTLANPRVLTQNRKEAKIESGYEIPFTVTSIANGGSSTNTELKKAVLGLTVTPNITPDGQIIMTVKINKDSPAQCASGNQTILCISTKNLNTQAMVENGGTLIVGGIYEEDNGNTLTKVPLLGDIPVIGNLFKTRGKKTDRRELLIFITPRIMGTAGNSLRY
# [8] = EDTA or no additive (no Mg2+), single-stranded DNA
sequence,measurement,setting,value
AACAACAACAAAAGGCCTGTCATCCAACTTCCGGACAGTAAACAACAACAAC (double strand) [HH10/HH11 dsDNA without DUS],binding result,[1]; EDTA or no additive (no Mg2+),no binding
AACAACAACAAATGCCGTCTGAACCAACATGCCGTCTGAAAACAACAACAAC (double strand) [HH7/HH8 dsDNA with 12 bp DUS],binding result,"[1]; 5 mM Mg2+, same results as without DUS",binds
same,binding result,[1]; EDTA or no additive (no Mg2+),no binding
CAACAACAACAACAGCCGTCTGAACCAAATTCAGACGGCAACAACAACAACA (double strand) [T1T2 dsDNA with 10 bp DUS],binding result,[2],binds
same,binding result,[3],binds
AACAACAACAAAAGGCCTGTCATCCAACTTCCGGACAGTAAACAACAACAAC [HH10 ssDNA without DUS],binding result,[1]; [8],no binding
CAACAACAACAACAGGCCTGTCATCCAAACTGACAGGCCAACAACAACAACA [T3 ssDNA without DUS],binding result,[2]; single-stranded DNA,binds
same,binding result,[3]; single-stranded DNA,binds
CAACAACAACAACAGCCGTCTGAACCAAATTCAGACGGCAACAACAACAACA [T1 ssDNA with 10 bp DUS],binding result,[2]; single-stranded DNA,binds
same,binding result,[4],binds
same,binding result,[5],binds
same,binding result,[6],binds
same,binding result,[7],binds
same,binding result,[3]; single-stranded DNA,binds
AACAACAACAAATGCCGTCTGAACCAACATGCCGTCTGAAAACAACAACAAC [HH7 ssDNA with 12 bp DUS],binding result,"[1]; 5 mM Mg2+, same results as without DUS, single-stranded DNA",binds
same,binding result,[1]; [8],no binding
